Replication capacity of HIV-1 mutants, Nef

Reference: Al-Mawsawi et al. 2014, doi:10.1186/s12977-014-0124-6.

Protein: Nef of HIV-1 NL4-3, numbered from its first residue.
From base 9076 on, changes also alter the 3' U3.
Effects on overlapping genes or RNA elements are not listed.

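Random point mutant libraries of HIV-1 NL4-3, one for each of seven fragments, were passaged in CEM T lymphocytes. Sequencing gave the RC index: frequency after two rounds over frequency in the input plasmid.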

Values are the RC index; higher means better tolerated. The authors read about 0.1 or less as lethal, 0.1-0.2 as attenuated and 0.2 or more as tolerated. Substitutions are written as wild-type residue, site number, new residue. Nucleotide positions follow pNL4-3. Clones carried about five changes per kilobase, which can drag down the index of neutral changes. The authors read an index above 1 as above wild type (1.9% of all changes in the genome).

With K144T (base A9217C) the assay gave 0.671. R184W (base A9336T) gave 0.598. G3R (base G8793C) gave 0.109. S88N (base G9049A) read 0.801. With W124C (base G9158T) the assay gave 0.252. P131A (base C9177G) read 0.438. With R106G (base A9102G) the assay gave 0.493.

V10A (base T8815C) read 4.38. I101V (base A9087G) gave 0.907. V180M (base G9324A) read 1.12. M173V (base A9303G) read 0.721. V153I (base G9243A) gave 1.18. With G159V (base G9262T) the assay gave 0.791. With N51K (base C8939G) the assay gave 0.421.

D28V (base A8869T) gave 0.0170. For S8G (base A8808G) the result was 0.673. For L91S (base T9058C) the result was 0.0557. With V146A (base T9223C) the assay gave 0.669. S187R (base C9347G) gave 0.271. F185S (base T9340C) gave 0.544. G29W (base G8871T) read 0.659.

L91F (base A9059T) read 0.130. For R19S (base A8843T) the result was 0.0186. For V146I (base G9222A) the result was 0.897. K144E (base A9216G) read 0.699. With P176A (base C9312G) the assay gave 0.160. L164V (base T9276G) read 0.387. For K94E (base A9066G) the result was 0.559.

For S46C (base A8922T) the result was 0.434. With F191L (base T9359G) the assay gave 0.106. K82T (base A9031C) read 0.910. For Q104H (base A9098C) the result was 0.488. W124R (base T9156A) read 0.722. E59G (base A8962G) read 0.782. V148L (base G9228C) read 0.199.

E93G (base A9064G) read 0.490. W113R (base T9123A) read 0.408. D108G (base A9109G) read 0.492. E24D (base G8858T) read 0.0513. For S45C (base A8919T) the result was 0.727. S45N (base G8920A) read 0.964. L100Q (base T9085A) read 0.828.

P200R (base C9385G) read 0.188.

4 of these entries, quoted again:

| mutation | base | RC |
|---|---|---|
| P131A | C9177G | 0.438 |
| N51K | C8939G | 0.421 |
| V146A | T9223C | 0.669 |
| S45N | G8920A | 0.964 |